{
  "source": "paper PMC3151279",
  "about": "“Cross-Reactivity of Anthrax and C2 Toxin: Protective Antigen Promotes the Uptake of Botulinum C2I Toxin into Human Endothelial Cells” (2011)",
  "target": "C2II channel, trypsin-activated binding component of Clostridium botulinum C2 toxin (Clostridium botulinum)",
  "data": [
    {"substance": "anthrax edema factor (from UniProt P40136 34-800)", "values": [
      {"measurement": "Kd", "value": 13, "unit": "nM"}
    ]}
  ]
}
